## Primary screen of a compound library

Measurements from “University of Dundee, Small-Polar-MMV Screening Library” (2021), ChEMBL document CHEMBL3988442.

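Phenotypic screen: M. tuberculosis growth, glucose 7H9 medium, 3 days; the read-out is not stated. Compounds at 500 µM. The record gives no direction; compounds that gave an IC50 in retests scored well above the rest, so higher reads as more growth inhibition. Size under these conditions: about 18,000 compounds, about 1,400 of them at 50% or above in at least one test.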

Each number is a percent effect as filed.
The controls that fix the scale are not given in the record; negative values are as filed.
Many other results are left out here, so strong results are more common than in the screen.

structure	percent effect
COC[C@@H]1CN(C(=O)c2cccc(F)c2)C[C@H]1C(N)=O	7.677
CCNC(=O)[C@@H](NC(=O)c1ccccc1)C(C)C	7.429
O=C(Nc1ccc(-n2cncn2)nc1)N1CCSCC1	1.305
CCCN1CCC(Cc2noc(C3CCNC3)n2)CC1 (stereo not drawn)	3.83
CCN(C(=O)c1cc(F)ccc1OC)[C@H]1COC[C@@H]1O	21.72
O=C(NCCc1cccnc1)c1cc(C2CC2)on1	53.62
O=C1CCCN1CCCNS(=O)(=O)c1ccc(Br)s1	56.75
COC(=O)CCCC(=O)N1CCCc2ccc(F)cc21	56.35
CCN(CC)C(=O)C1CCCN1Cc1cccnc1 (stereo not drawn)	-12.84
C[C@@H]1COC[C@H](c2ccccc2)N1	-3.23
CCC[C@H]1CN(C(=O)CCn2ccnc2CC)C[C@@H]1N	12.48
O=C(CSc1cccs1)NCC(=O)N1CCCC1	33.74
NCCCSc1ccccn1	7.215
NS(=O)(=O)c1ccc(F)c(C(=O)Nc2ccccc2)c1	54.33
CCN(Cc1ccoc1)C(=O)[C@@H](N)CC(C)C	34.94
COCCn1nc(C(=O)Nc2cc(C)on2)ccc1=O	2.02
CNCC(=O)NCCCc1nc2c(C)c(C)ccc2[nH]1	16.81
N#Cc1cccc(C(=O)NCCCN2CCCC2)c1	15.63
O=c1[nH]c(=O)c2ccc(Cl)cc2o1	11.22
CC(C)(C)OC(=O)N1CC(N)CC(F)(F)C1 (stereo not drawn)	-6.027
O=C(NCc1cc(F)cc(Br)c1)C1COCCN1 (stereo not drawn)	26.5
NCCC1COc2ccccc2O1 (stereo not drawn)	-12.25
O=C(Cn1cccnc1=O)N1CCCC1c1cccs1 (stereo not drawn)	-5.427
O=C(CN1CCCN(CC2CCC2)CC1)N1CCCC1	-3.044
Nc1nccnc1C(=O)NCc1ccccc1	55.97
NC(=O)CC1CCN(C(=O)Cc2ccc(Cl)cc2)CC1	51.56
CN(Cc1ccccc1Br)C(=O)c1nccnc1N	52.93
CC(C)(C#N)C(=O)Nc1ccc2c(c1)NC(=O)CO2	12.18
Cc1ccc(NC(=O)CCn2ccc(=O)[nH]c2=O)cc1	1.367
CC(NC(=O)c1cccn1C(C)C)c1ncon1 (stereo not drawn)	8.42
O=c1cc(C2CCC2)nc[nH]1	1.897
CN(Cc1ccco1)CC(O)COCc1cccs1 (stereo not drawn)	68.65
CCCOc1cc(CNC(=O)c2csnc2C)ccn1	67.38
COCCOC1CCN(S(=O)(=O)c2cn(C)cn2)CC1	-0.5821
Cc1ccc2c(c1)C(O)CCCS2(=O)=O (stereo not drawn)	10.12
O[C@H]1CCN(CC(F)(F)F)C1	-16.25
CC(C)Sc1ccccc1NS(=O)(=O)N(C)C	65.87
CC(NS(=O)(=O)c1cccc(Br)c1)c1nc[nH]n1 (stereo not drawn)	12.32
CCS(=O)(=O)NCCNC(=O)C1(C)CCCC1	14.25
C=C(C)COc1ccc(C(=O)NCc2ncc[nH]2)cc1	44.88
CCCNC(=O)Nc1ccc2c(c1)OCCO2	33.09
CC(C)CS(=O)(=O)CCNC(=O)Cn1cccnc1=O	9.546
NCC(O)c1ccc(Cl)cc1Cl (stereo not drawn)	59.77
COc1ccc(C(C)NCC(C)(C)C(N)=O)c(F)c1 (stereo not drawn)	-7.786
Fc1cccc(-c2noc(C3CCCN3)n2)c1 (stereo not drawn)	64.2

Once more, the final 3:

structure,percent effect
NCC(O)c1ccc(Cl)cc1Cl (stereo not drawn),59.77
COc1ccc(C(C)NCC(C)(C)C(N)=O)c(F)c1 (stereo not drawn),-7.786
Fc1cccc(-c2noc(C3CCCN3)n2)c1 (stereo not drawn),64.2